{
  "source": "paper PMC5613637",
  "test_in_all_cases": "purified protein",
  "details_in_all_cases": "25.0 °C",
  "key": {"[1]": {"tested_on": "CC(=O)OCOc1ccc2c(c1)Oc1cc(OCOC(C)=O)ccc1C21OC(=O)c2ccccc21"}, "[2]": {"tested_on": "O=C1OC2(c3ccc(OCOC(=O)C4CCCCC4)cc3Oc3cc(OCOC(=O)C4CCCCC4)ccc32)c2ccccc21"}, "[3]": {"tested_on": "CC(C)(C)C(=O)OCOc1ccc2c(c1)Oc1cc(OCOC(=O)C(C)(C)C)ccc1C21OC(=O)c2ccccc21"}, "[4]": {"tested_on": "O=C(OCOc1ccc2c(c1)Oc1cc(OCOC(=O)c3ccco3)ccc1C21OC(=O)c2ccccc21)c1ccco1"}, "[5]": {"tested_on": "CCCC(=O)OCOc1ccc2c(c1)Oc1cc(OCOC(=O)CCC)ccc1C21OC(=O)c2ccccc21"}, "[6]": {"tested_on": "C=C(C)C(=O)OCOc1ccc2c(c1)Oc1cc(OCOC(=O)C(=C)C)ccc1C21OC(=O)c2ccccc21"}, "[7]": {"tested_on": "O=C1OC2(c3ccc(OCOC(=O)C4CCCC4)cc3Oc3cc(OCOC(=O)C4CCCC4)ccc32)c2ccccc21"}, "[8]": {"tested_on": "CCC(=O)OCOc1ccc2c(c1)Oc1cc(OCOC(=O)CC)ccc1C21OC(=O)c2ccccc21"}, "[9]": {"tested_on": "COCCC(=O)OCOc1ccc2c(c1)Oc1cc(OCOC(=O)CCOC)ccc1C21OC(=O)c2ccccc21"}, "[10]": {"tested_on": "CCCCCC(=O)OCOc1ccc2c(c1)Oc1cc(OCOC(=O)CCCCC)ccc1C21OC(=O)c2ccccc21"}, "[11]": {"tested_on": "CCCC(=O)Oc1ccc([N+](=O)[O-])cc1"}, "[12]": {"tested_on": "O=C(CC(F)(F)F)OCOc1ccc2c(c1)Oc1cc(OCOC(=O)CC(F)(F)F)ccc1C21OC(=O)c2ccccc21"}, "[13]": {"tested_on": "COCC(=O)OCOc1ccc2c(c1)Oc1cc(OCOC(=O)COC)ccc1C21OC(=O)c2ccccc21"}, "[14]": {"tested_on": "O=C(OCOc1ccc2c(c1)Oc1cc(OCOC(=O)c3ccccc3)ccc1C21OC(=O)c2ccccc21)c1ccccc1"}, "[15]": {"tested_on": "O=C1OC2(c3ccc(OCOC(=O)C4CCC4)cc3Oc3cc(OCOC(=O)C4CCC4)ccc32)c2ccccc21"}, "[16]": {"tested_on": "CCCCC(=O)OCOc1ccc2c(c1)Oc1cc(OCOC(=O)CCCC)ccc1C21OC(=O)c2ccccc21"}, "[17]": {"tested_on": "CC(=O)Oc1ccc([N+](=O)[O-])cc1"}, "[18]": {"tested_on": "CCCCCCCC(=O)Oc1ccc([N+](=O)[O-])cc1"}, "[19]": {"tested_on": "CCCCCCCCCCCC(=O)Oc1ccc([N+](=O)[O-])cc1"}},
  "data": [
    {"substance": "FTT0941c (Francisella tularensis subsp. tularensis SCHU S4)", "values": [
      {"measurement": "Km", "setting": "[1]", "result": "1.1 ± 0.5", "unit": "µM"},
      {"measurement": "kcat/Km", "setting": "[1]", "result": 370, "unit": "M⁻¹ s⁻¹"},
      {"measurement": "Km", "setting": "[2]", "result": "17 ± 2", "unit": "µM"},
      {"measurement": "kcat/Km", "setting": "[2]", "result": 530, "unit": "M⁻¹ s⁻¹"},
      {"measurement": "Km", "setting": "[3]", "result": "0.48 ± 0.04", "unit": "µM"},
      {"measurement": "kcat/Km", "setting": "[3]", "result": 26, "unit": "M⁻¹ s⁻¹"},
      {"measurement": "Km", "setting": "[4]", "result": "5.9 ± 2.0", "unit": "µM"},
      {"measurement": "kcat/Km", "setting": "[4]", "result": 160, "unit": "M⁻¹ s⁻¹"},
      {"measurement": "Km", "setting": "[5]", "result": "2.2 ± 0.4", "unit": "µM"},
      {"measurement": "kcat/Km", "setting": "[5]", "result": 400, "unit": "M⁻¹ s⁻¹"},
      {"measurement": "Km", "setting": "[6]", "result": "0.48 ± 0.05", "unit": "µM"},
      {"measurement": "kcat/Km", "setting": "[6]", "result": 130, "unit": "M⁻¹ s⁻¹"},
      {"measurement": "Km", "setting": "[7]", "result": "4.2 ± 0.4", "unit": "µM"},
      {"measurement": "kcat/Km", "setting": "[7]", "result": 180, "unit": "M⁻¹ s⁻¹"},
      {"measurement": "Km", "setting": "[8]", "result": "2.7 ± 0.7", "unit": "µM"},
      {"measurement": "kcat/Km", "setting": "[8]", "result": 250, "unit": "M⁻¹ s⁻¹"},
      {"measurement": "Km", "setting": "[9]", "result": "8.3 ± 1.4", "unit": "µM"},
      {"measurement": "kcat/Km", "setting": "[9]", "result": 340, "unit": "M⁻¹ s⁻¹"},
      {"measurement": "Km", "setting": "[10]", "result": "0.42 ± 0.10", "unit": "µM"},
      {"measurement": "kcat/Km", "setting": "[10]", "result": 120, "unit": "M⁻¹ s⁻¹"},
      {"measurement": "Km", "setting": "[11]", "result": "4000 ± 1900", "unit": "µM"},
      {"measurement": "kcat/Km", "setting": "[11]", "result": 1900, "unit": "M⁻¹ s⁻¹"},
      {"measurement": "Km", "setting": "[12]", "result": "780 ± 40", "unit": "µM"},
      {"measurement": "kcat/Km", "setting": "[12]", "result": 150, "unit": "M⁻¹ s⁻¹"},
      {"measurement": "Km", "setting": "[13]", "result": "83 ± 16", "unit": "µM"},
      {"measurement": "kcat/Km", "setting": "[13]", "result": 50, "unit": "M⁻¹ s⁻¹"},
      {"measurement": "Km", "setting": "[14]", "result": "1.1 ± 0.3", "unit": "µM"},
      {"measurement": "kcat/Km", "setting": "[14]", "result": 380, "unit": "M⁻¹ s⁻¹"},
      {"measurement": "Km", "setting": "[15]", "result": "0.38 ± 0.06", "unit": "µM"},
      {"measurement": "kcat/Km", "setting": "[15]", "result": 140, "unit": "M⁻¹ s⁻¹"},
      {"measurement": "Km", "setting": "[16]", "result": "1.2 ± 0.1", "unit": "µM"},
      {"measurement": "kcat/Km", "setting": "[16]", "result": 180, "unit": "M⁻¹ s⁻¹"},
      {"measurement": "Km", "setting": "[17]", "result": "920 ± 220", "unit": "µM"},
      {"measurement": "kcat/Km", "setting": "[17]", "result": 5000, "unit": "M⁻¹ s⁻¹"},
      {"measurement": "Km", "setting": "[18]", "result": "240 ± 150", "unit": "µM"},
      {"measurement": "kcat/Km", "setting": "[18]", "result": 3400, "unit": "M⁻¹ s⁻¹"},
      {"measurement": "Km", "setting": "[19]", "result": "1800 ± 600", "unit": "µM"},
      {"measurement": "kcat/Km", "setting": "[19]", "result": 230, "unit": "M⁻¹ s⁻¹"}
    ]}
  ]
}
